The results in this text go back to patent US20230145822A1 (priority 2020, published 2023).

Chains of the proteins cited; added tags and fusions are not shown. Residues count along the entry.
UniProt P04925, 23-254 limits assumed: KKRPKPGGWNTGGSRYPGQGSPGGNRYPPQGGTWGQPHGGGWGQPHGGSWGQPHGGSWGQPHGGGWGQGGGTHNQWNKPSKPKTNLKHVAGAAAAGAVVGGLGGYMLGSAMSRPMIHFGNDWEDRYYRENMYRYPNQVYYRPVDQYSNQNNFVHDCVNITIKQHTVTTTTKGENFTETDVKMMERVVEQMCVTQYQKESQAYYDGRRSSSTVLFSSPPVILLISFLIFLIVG

This test has as its target mouse PrP^C (Mus musculus, UniProt P04925).
As to `COc1cc(C2CC(=O)Nc3c2cnn3-c2cccc(Br)c2)ccc1O` (centres unmarked), the DC50 was over 30 µM. With `COc1cc(C2CC(=O)Nc3c2cnn3-c2ccc(Cl)cc2)ccc1O` (centres unmarked), the DC50 was 24.6 µM. The compound `COc1cc(C2CC(=O)Nc3c2cnn3-c2ccccc2Br)ccc1O` (centres unmarked) displayed a DC50 of over 30 µM.

`COc1ccc(C2CC(=O)N(C)c3c2cnn3-c2ccc(Br)cc2)cc1OC` (centres unmarked) gave a DC50 of over 30 µM. With `COc1cc(C2CC(=O)Nc3c2cnn3-c2ccc(Br)cc2)ccc1O` (centres unmarked) [SM875], the DC50 is 12.5 µM. Compound `COc1cc(C2CC(=O)Nc3c2cnn3-c2ccc(Br)cc2)ccc1OCc1ccccc1` (centres unmarked) registered a DC50 of over 30 µM. `COc1ccc(C2CC(=O)Nc3c2cnn3-c2ccccc2F)cc1O` (centres unmarked) displayed a DC50 of over 30 µM. Compound `COc1cc(C2CC(=O)Nc3c2cnn3-c2ccc(Br)cc2)cc(OC)c1OC` (centres unmarked) displayed a DC50 of over 30 µM. `COc1cc(C2CC(=O)Nc3c2cnn3-c2ccc(C(F)(F)F)cc2)ccc1O` (centres unmarked) came in with a DC50 of over 30 µM. Regarding `O=C1CC(c2ccc(O)cc2)c2cnn(-c3ccc(Br)cc3)c2N1` (centres unmarked), the DC50 came to 12.5 µM. Consider `COc1cc(C2CC(=O)N(C)c3c2cnn3-c2ccc(Br)cc2)ccc1O` (centres unmarked), for which the DC50 is over 30 µM. As to `COc1cc(C2CC(=O)Nc3c2c(C)nn3-c2ccc(Br)cc2)ccc1O` (centres unmarked), the DC50 is over 30 µM. For `O=C1CC(c2ccc(Oc3ccccc3)cc2)c2cnn(-c3ccc(Br)cc3)c2N1` (centres unmarked), the DC50 was over 30 µM.

In turn, `O=C1CC(c2ccccc2)c2cnn(-c3ccc(Br)cc3)c2N1` (centres unmarked) showed a DC50 of over 30 µM. `COc1ccc(C2CC(=O)Nc3c2cnn3-c2ccc(Br)cc2)cc1O` (centres unmarked) returned a DC50 of over 30 µM. Consider `COc1ccc(C2CC(=O)Nc3c2cnn3-c2ccc(F)c(Cl)c2)cc1O` (centres unmarked), for which the DC50 is over 30 µM. `COc1cc(C2CC(=O)Nc3c2cnn3-c2ccccc2)ccc1O` (centres unmarked): the DC50 was over 30 µM. The compound `O=C1CC(c2ccc3c(c2)OCCO3)c2cnn(-c3ccc(Br)cc3)c2N1` (centres unmarked) returned a DC50 of 10.2 µM.

`O=C1CC(c2ccc3c(c2)OCCO3)c2cnn(-c3ccc(I)cc3)c2N1` (centres unmarked) came in with a DC50 of over 30 µM.

In turn, `COc1cc(C2CC(=O)Nc3c2cnn3-c2ccccc2F)ccc1O` (centres unmarked) showed a DC50 of over 30 µM. Under `COc1ccc(C2CC(=O)Nc3c2cnn3-c2ccc(I)cc2)cc1O` (centres unmarked) stands 8.8 µM. Next, `COc1cc(C2CC(=O)Nc3c2cnn3-c2ccc(F)cc2)ccc1O` (centres unmarked): over 30 µM; `COc1cc(C2CC(=O)Nc3c2cnn3-c2ccc(C)cc2)ccc1O` (centres unmarked): over 30 µM; `COc1cc(C2CC(=O)Nc3c2cnn3-c2ccc(I)cc2)ccc1O` (centres unmarked) [GC6]: 7 µM.

Regarding `COc1ccc(C2CC(=O)Nc3c2cnn3-c2cccc(Br)c2)cc1O` (centres unmarked), the DC50 was over 30 µM. `COc1ccc(C2CC(=O)N(C)c3c2cnn3-c2ccc(I)cc2)cc1OC` (centres unmarked) yielded a DC50 of over 30 µM. Take `COc1cc(C2CC(=O)Nc3c2cnn3-c2ccc(F)cc2F)ccc1O` (centres unmarked): the DC50 was over 30 µM. Regarding `COc1ccc(C2CC(=O)Nc3c2cnn3-c2ccc(F)cc2F)cc1O` (centres unmarked), the DC50 was over 30 µM. `CCOc1cc(C2CC(=O)Nc3c2cnn3-c2ccc(Br)cc2)ccc1OC` (centres unmarked) registered a DC50 of 12 µM.
